System: V. paradoxus CL14
Assay: LC–MS/MS metabolomics on Variovorax IAA degradation
Type: cell-based, Variovorax paradoxus CL14
Conditions: for consumption by V. paradoxus CL14: detected in media controls, LC–MS/MS of cultures in M9 minimal medium; for detection of the metabolite (annotation in name column): all samples; for detection of the isotopologue in the metabolomics data set (note in the name column): 13C6 isotopologue

SMILES: O=C(O)Cc1c(O)[nH]c2ccccc12 [2-hydroxyindole-3-acetic acid]
- consumption by V. paradoxus CL14: completely consumed

SMILES: Nc1ccc(C(=O)O)cc1 [4-aminobenzoic acid___13C6]
- detection of the metabolite (annotation in name column): 4-aminobenzoic acid and/or isomer(s) (not detected)

SMILES: O=C(O)CC1(O)C(=O)Nc2ccccc21 (centres unmarked) [DOAA, dioxindole-3-acetic acid]
- consumption by V. paradoxus CL14: completely consumed

SMILES: O=C(O)Cc1c[nH]c2ccccc12 [IAA, indole-3-acetic acid]
- consumption by V. paradoxus CL14: completely consumed

SMILES: Oc1ccccc1O [catechol___12C]
- detection of the metabolite (annotation in name column): catechol (not detected)

SMILES: O=C(O)C[C@H](NC(=O)Cc1c[nH]c2ccccc12)C(=O)O [indole-3-acetyl-L-aspartic acid (IAAsp)___13C6]
- detection of the isotopologue in the metabolomics data set (note in the name column): indole-3-acetyl-L-aspartic acid (IAAsp) (not detected)

SMILES: O=C(O)CCCc1c[nH]c2ccccc12 [indole-3-butyric acid (IBA)___13C6]
- detection of the isotopologue in the metabolomics data set (note in the name column): indole-3-butyric acid (IBA) (not detected)

SMILES: OCCc1c[nH][13c]2[13cH][13cH][13cH][13cH][13c]12 [indole-3-ethanol___13C6]
- detection of the isotopologue in the metabolomics data set (note in the name column): indole-3-ethanol (not detected)

Reference: paper PMC9613470, “Diverse MarR bacterial regulators of auxin catabolism in the plant microbiome” (Nature Microbiology, 2022)
